Share of PSTVd loop 15 variants by leaf site

Reference: Wu et al. 2024, doi:10.1371/journal.ppat.1012142.

Region: loop 15 of PSTVd (intermediate strain), upper and lower strand joined, each 5' to 3', the first 7 letters being the upper strand, closing pairs included. Wild type: GGAAACCGCUACUAC. Varied positions (N): GGAAACCGNNNNNNC.

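Three N. benthamiana plants were inoculated with the whole mutant pool. Samples came from the inoculated region at 5 days, the leaf margin at 10 and upper systemic leaves at 12.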

Numbers give reads per thousand; 0 = not seen among the reads, higher = more abundant.
Each site shows the three plants.
"Pool" is the share in the plasmid pool used as inoculum, on the same scale.
The inoculated region was read from the minus strand, the other sites from the plus strand.
Sequences that differ at fixed positions probably stem from PCR or sequencing errors, and defective variants can be carried along by functional ones.
Samples held 43,870 to 66,106 reads, so the smallest values rest on one or two reads.
Wild type was 33.9 per thousand in the pool and the most common sequence in every sample (inoculated region 202, 200, 159; leaf margin 724, 746, 710; systemic leaves 856, 883, 880).

GGAAACCGAACUAAC (pool 0.272) read inoculated region 0.0655 / 0.177 / 0.0571; leaf margin 0 / 0 / 0.0200; systemic leaves 0 / 0 / 0.0456.
GGAAACCGAAGGAUC (pool 0.240) read inoculated region 0.131 / 0.112 / 0.152; leaf margin 0 / 0.0223 / 0; systemic leaves 0 / 0 / 0.
GGAAACCGAAUAGUC (pool 0.352) read inoculated region 0.0491 / 0.161 / 0.133; leaf margin 0.0323 / 0 / 0.0200; systemic leaves 0 / 0 / 0.
GGAAACCGAAUUGUC (pool 0.272) read inoculated region 0.213 / 0.145 / 0.133; leaf margin 0.0323 / 0 / 0; systemic leaves 0.0161 / 0 / 0.
GGAAACCGAGUGCAC (pool 0.160) read inoculated region 0.115 / 0.0803 / 0.0952; leaf margin 0.0162 / 0.0445 / 0.0401; systemic leaves 0 / 0 / 0.
GGAAACCGAUCGCAC (pool 0.208) read inoculated region 0.0983 / 0.112 / 0.0762; leaf margin 0 / 0 / 0; systemic leaves 0 / 0 / 0.
GGAAACCGAUUUAAC (pool 0.304) read inoculated region 0.0491 / 0.0964 / 0.114; leaf margin 0.0162 / 0 / 0.0200; systemic leaves 0 / 0 / 0.
GGAAACCGCACCCCC (pool 0.304) read inoculated region 0.115 / 0.0643 / 0.114; leaf margin 0 / 0.0223 / 0.0401; systemic leaves 0.0161 / 0 / 0.
GGAAACCGCACUCGC (pool 0.224) read inoculated region 0.0819 / 0.112 / 0.114; leaf margin 0 / 0 / 0; systemic leaves 0 / 0 / 0.
GGAAACCGCCACUGC (pool 0.304) read inoculated region 0.295 / 0.321 / 0.476; leaf margin 0.162 / 0.134 / 0.160; systemic leaves 0.0161 / 0.0151 / 0.114.
GGAAACCGCCAUAGC (pool 0.288) read inoculated region 0.115 / 0.0964 / 0.114; leaf margin 0 / 0 / 0; systemic leaves 0.0161 / 0 / 0.
GGAAACCGCCUAAGC (pool 0.240) read inoculated region 0.180 / 0.0803 / 0.0952; leaf margin 0.0162 / 0 / 0.0200; systemic leaves 0 / 0 / 0.
GGAAACCGCCUGAAC (pool 0.224) read inoculated region 0.115 / 0.0482 / 0.114; leaf margin 0 / 0 / 0; systemic leaves 0 / 0 / 0.
GGAAACCGCCUUAGC (pool 0.256) read inoculated region 0.0655 / 0.0643 / 0.0762; leaf margin 0.0162 / 0 / 0; systemic leaves 0 / 0 / 0.
GGAAACCGCUGAUGC (pool 0.224) read inoculated region 0.147 / 0.0964 / 0.0952; leaf margin 0 / 0 / 0; systemic leaves 0 / 0 / 0.
GGAAACCGCUGUAUC (pool 0.192) read inoculated region 0.147 / 0.0803 / 0.0762; leaf margin 0 / 0 / 0; systemic leaves 0 / 0 / 0.
GGAAACCGGAUAAUC (pool 0.208) read inoculated region 0.131 / 0.0643 / 0.0571; leaf margin 0.0323 / 0 / 0.0200; systemic leaves 0 / 0 / 0.
GGAAACCGGCACCCC (pool 0.336) read inoculated region 0.164 / 0.129 / 0.0762; leaf margin 0 / 0 / 0; systemic leaves 0 / 0 / 0.
GGAAACCGGUAGCAC (pool 0.256) read inoculated region 0.262 / 0.386 / 0.457; leaf margin 0.162 / 0.134 / 0.140; systemic leaves 0.0644 / 0.0454 / 0.160.
GGAAACCGGUAUGAC (pool 0.192) read inoculated region 0.0655 / 0.129 / 0.171; leaf margin 0 / 0 / 0.0401; systemic leaves 0 / 0 / 0.
GGAAACCGGUAUGGC (pool 0.272) read inoculated region 0.0983 / 0.0321 / 0.0762; leaf margin 0 / 0 / 0; systemic leaves 0 / 0 / 0.
GGAAACCGGUUCUGC (pool 0.128) read inoculated region 0.115 / 0.112 / 0.133; leaf margin 0 / 0.0223 / 0.0401; systemic leaves 0 / 0 / 0.
GGAAACCGUACAGAC (pool 0.112) read inoculated region 0.0819 / 0.0964 / 0.114; leaf margin 0 / 0 / 0; systemic leaves 0 / 0 / 0.
GGAAACCGUCCGACC (pool 0.176) read inoculated region 0.0491 / 0.112 / 0.0571; leaf margin 0 / 0 / 0; systemic leaves 0.0161 / 0 / 0.
GGAAACCGUUCGCCC (pool 0.192) read inoculated region 0.0983 / 0.0803 / 0.190; leaf margin 0.0162 / 0.0445 / 0.0401; systemic leaves 0 / 0 / 0.

Extract of 2 entries:

| sequence | pool | inoculated region | leaf margin | systemic leaves |
|---|---|---|---|---|
| GGAAACCGAAUAGUC | 0.352 | 0.0491 / 0.161 / 0.133 | 0.0323 / 0 / 0.0200 | 0 / 0 / 0 |
| GGAAACCGCCUAAGC | 0.240 | 0.180 / 0.0803 / 0.0952 | 0.0162 / 0 / 0.0200 | 0 / 0 / 0 |